Results of unrelated studies side by side (data: NIAID ChemDB).

All rows: growth or infection tests; organism: HIV-1; method: MTT; read-out: EC50

ECn: concentration that inhibits the pathogen or its effect by n%. An empty or dashed field is not shown. Rows are shuffled and stem from different studies.

smiles	changes	cells	strain	result
COc1ccc(N(C)C(=O)[C@H](Cc2cc(F)cc(F)c2)NC(=O)CN2CCN(S(=O)(=O)c3cccc([N+](=O)[O-])c3)CC2=O)cc1		MT-4	IIIB	1.49 µM
COc1ccc(N(C)C(=O)[C@H](Cc2ccccc2)NC(=O)c2cccc(-c3cn(-c4cnc5ccccc5c4)nn3)c2)cc1		TZM-bl	NL4-3	>34.33 µM
CCc1c(Cc2cc(C)cc(C)c2)n(COCC#Cc2cccs2)c(=O)[nH]c1=O	WT	MT-4	IIIB	0.008 µM
CC(C)[C@@H](NC(=O)c1ccccc1)C(=O)N/N=C/c1c(F)cccc1F		MT-4	IIIB	>348 µM
CN1CC(=O)C(=O)C=C1Cn1cnc([N+](=O)[O-])c1Nc1ccc(C#N)cc1		MT-4	IIIB	>250 µM
CCOP(=O)(OCC)C(N[C@@H](Cc1ccccc1)[C@@H](O)CN(CC(C)C)S(=O)(=O)c1ccc(OC)cc1)c1ccccn1		MT-4	IIIB	>13.93 µg/mL
CC(C)[C@H](NC(=O)c1ccccc1)C(=O)N/N=C/c1c(F)cccc1Cl		MT-4	IIIB	17.4 µM
CC(C)CN(C[C@@H](O)[C@H](Cc1ccccc1)NC(=O)O[C@H]1CO[C@H]2OCC[C@H]21)S(=O)(=O)c1ccc2c(c1)OCO2		MT-2	LAI	0.0005 µM
CNc1cc(Oc2ccc3cc(Br)ccc3c2)nc(Nc2ccc(C#N)cc2)n1	WT	MT-4	IIIB	0.359 µM
COc1ccc(NC(=S)Nc2nc(/C=C/c3cc(OC)c(OC)c(OC)c3)nc3ccccc23)cc1		MT-4	IIIB	>4.43 µg/mL
COc1ccc(S(=O)(=O)N(CC(C)C)C[C@@H](O)[C@@H]2Cc3ccc(cc3)OCC/C=C/CCc3c(O)cccc3C(=O)N2)cc1		MT-2	LAI	0.28 µM
CCc1c(Cc2cc(C)cc(C)c2)n(COCC#Cc2cccc(O[Si](c3ccccc3)(c3ccccc3)C(C)(C)C)c2)c(=O)[nH]c1=O	WT	MT-4	IIIB	0.5 µM
COc1ccc(C(=O)/C=C/c2ccc(OC)c(OC)c2)c(O)c1		MT-4	IIIB	>400 µM
COc1cc2c(c(OC)c1OC)-c1c(cc(OC(C)=O)c(OC)c1OC)[C@H](OC)[C@@H](C)[C@@H](C)C2		C8166		2.26 µg/mL
Cc1cc(/C=C/C#N)cc(C)c1Oc1nc(NC2CCN(Cc3ccc(Cl)cc3)CC2)nc2ccsc12	NNRTI-resistant (RT Y181C)	MT-4	IIIB	0.0777 µM
COc1cc(/C=C/c2nc(NC(=S)Nc3cccc(C)c3)c3ccccc3n2)cc(OC)c1OC		MT-4	IIIB	>5.46 µg/mL
COc1ccc(/C=C/C(=O)c2ccc(OC)cc2)cc1		MT-4	IIIB	>400 µM
CCc1c(Cc2cc(C)cc(C)c2)n(COCC#Cc2cnccn2)c(=O)[nH]c1=O	Y181C	MT-4	IIIB	11 µM
CCOP(=O)(OCC)C(N[C@@H](Cc1ccccc1)[C@@H](O)CN(CC(C)C)S(=O)(=O)c1ccc(OC)cc1)c1ccc([N+](=O)[O-])cc1		MT-4	ROD	>3.94 µg/mL
Cn1c(=O)cc(Oc2nc(Nc3ccc(C#N)cc3)nc(Oc3cc(=O)oc4ccccc34)n2)c2ccccc21			IIIB	>69.2 µg/mL
CCc1c(NC)nc(Nc2ccc(C#N)cc2)nc1Oc1ccc2cc(C#N)ccc2c1Br	WT	MT-4	IIIB	0.139 µM
CCOC(=O)c1ccc(CN2CCC(Nc3nc(Oc4c(C)cc(/C=C/C#N)cc4C)c4sccc4n3)CC2)cc1	NNRTI-resistant (RT K103N)	MT-4	IIIB	0.0132 µM
COc1cc(-c2nnc(Sc3nc(Nc4ccc(C#N)cc4)nc(Oc4cc(=O)n(C)c5ccccc45)n3)o2)cc(OC)c1OC			IIIB	>65.13 µg/mL
Cc1cc(C#N)cc(C)c1Oc1nc(NC2CCC(NCc3ccc(S(C)(=O)=O)cc3)CC2)nc2ccsc12	NNRTI-resistant (RT Y188L)	MT-4	IIIB	≥196 µM
CN1CC(=O)C(=O)C=C1Cn1cnc([N+](=O)[O-])c1Nc1cc(Cl)cc(Cl)c1			IIIB	1.3 µM
COc1ccc(N(C)C(=O)[C@H](Cc2cc(F)cc(F)c2)NC(=O)CN2CCN(S(=O)(=O)c3ccc(F)cc3)CC2=O)cc1		MT-4	IIIB	0.24 µM
Cc1cc(/C=C/C#N)cc(C)c1Oc1nc(NC2CCN(Cc3ccccc3F)CC2)nc2ccsc12	NNRTI-resistant (RT F227L V106A)	MT-4	IIIB	0.0406 µM
CCc1c(Cc2cc(C)cc(C)c2)n(COCc2cn(-c3cccnc3)nn2)c(=O)[nH]c1=O	Y181C	MT-4	IIIB	20 µM
CCc1c(NC)nc(Nc2ccc(C#N)cc2)nc1Oc1ccc2ccccc2c1	WT	MT-4	IIIB	0.031 µM
CCOP(=O)(OCC)C(N[C@@H](Cc1ccccc1)[C@@H](O)CN(CC(C)C)S(=O)(=O)c1ccc(OC)cc1)c1ccc2c(c1)OCO2		MT-4	ROD	>13.73 µg/mL
CN1CC(=O)C(=O)C=C1Cn1cnc([N+](=O)[O-])c1Nc1ccc(Cl)cc1		MT-4	IIIB	>250 µM
CCOP(=O)(OCC)C(N[C@@H](Cc1ccccc1)[C@H](O)CN(CC(C)C)S(=O)(=O)c1ccc(OC)cc1)c1ccc(C)cc1		MT-4	IIIB	>2.47 µg/mL
CCc1c(Cc2cc(C)cc(C)c2)n(COC/C(Br)=C(\Br)c2ccccc2)c(=O)[nH]c1=O	Y181C	MT-4	IIIB	1.4 µM
COc1ccc(N(C)C(=O)[C@H](Cc2cc(F)cc(F)c2)NC(=O)CN2CCN(S(=O)(=O)c3cccc(N)c3)CC2=O)cc1		MT-4	IIIB	0.16 µM
CCc1c(Cl)nc(Nc2ccc(C#N)cc2)nc1Oc1ccc2cc(C#N)ccc2c1	K103N + Y181C	MT-4	IIIB	25.25 µM
CCOP(=O)(OCC)C(N[C@@H](Cc1ccccc1)[C@H](O)CN(CC(C)C)S(=O)(=O)c1ccc(OC)cc1)C(C)C		MT-4	ROD	>11.52 µg/mL
O=C(/C=C/c1ccc(Br)cc1)c1ccccc1O		MT-4	IIIB	>400 µM
Cc1ccc(Sc2c([N+](=O)[O-])ncn2CC2=CC(=O)C(=O)CN2C)cc1		MT-4	IIIB	>29.8 µM
COc1ccc(/C=C/C(=O)c2ccccc2O)cc1		MT-4	IIIB	>400 µM
CC(C)[C@H](NC(=O)c1ccccc1)C(=O)N/N=C/c1ccccc1F		MT-4	IIIB	123.8 µM
CCc1c(NC)nc(Nc2ccc(C#N)cc2)nc1Oc1ccc2cc(C#N)ccc2c1	K103N + Y181C	MT-4	IIIB	59.52 µM
CN1CC(=O)C(=O)C=C1Cn1cnc([N+](=O)[O-])c1Nc1cccc(Cl)c1			IIIB	4.27 µM
CCc1c(Cc2cc(C)cc(C)c2)n(COC/C(=C/Sc2ccccc2)Sc2ccccc2)c(=O)[nH]c1=O	WT	MT-4	IIIB	0.06 µM
COc1cc(/C=C/c2nc(NC(=O)Nc3ccccc3)c3ccccc3n2)cc(OC)c1OC		MT-4	IIIB	>1.69 µg/mL
COc1ccc2nc(Nc3nc(Nc4ccc(C#N)cc4)nc(Oc4cc(=O)n(C)c5ccccc45)n3)sc2c1			IIIB	4.45 µg/mL
Cc1cn([C@H]2C[C@H](N=[N+]=[N-])[C@@H](CO)O2)c(=O)[nH]c1=O		MT-4	IIIB	0.026 µM
Cn1c(=O)cc(Oc2nc(Nc3ccc(C#N)cc3)nc(Nc3cnccn3)n2)c2ccccc21			IIIB	>83.58 µg/mL
COc1ccc(S(=O)(=O)N(CC(C)C)C[C@@H](O)[C@@H]2Cc3ccc(cc3)OCCCCCCc3c(O)cccc3C(=O)N2)cc1		MT-2	LAI	0.31 µM
Cc1cc(/C=C/C#N)cc(C)c1Oc1nc(NC2CCN(Cc3cccc(F)c3)CC2)nc2ccsc12	NNRTI-resistant (RT F227L V106A)	MT-4	IIIB	0.0569 µM
Cc1ccc2nc(Nc3nc(Nc4ccc(C#N)cc4)nc(Oc4cc(=O)n(C)c5ccccc45)n3)sc2c1			IIIB	>3.88 µg/mL
COc1ccc(C(=O)/C=C/c2ccccc2)c(O)c1		MT-4	IIIB	>400 µM
COc1ccc(N(C)C(=O)[C@H](Cc2cc(F)cc(F)c2)NC(=O)c2cccc(-c3cn(C4CC(n5cc(C)c(=O)[nH]c5=O)OC4CO)nn3)c2)cc1		TZM-bl	NL4-3	>27.94 µM
COc1cc(/C=C/c2nc(NC(=S)Nc3ccc(C)cc3)c3ccccc3n2)cc(OC)c1OC		MT-4	IIIB	>1.7 µg/mL
Cc1cc(/C=C/C#N)cc(C)c1Oc1nc(NC2CCN(Cc3ccncc3)CC2)nc2ccsc12	NNRTI-resistant (RT L100I)	MT-4	IIIB	0.00635 µM
Cc1c(C(C)c2c(F)cccc2F)nc(NN2CCCCCC2)[nH]c1=O		MT-4	NL4-3	0.009 µM
CCc1c(NC)nc(Nc2ccc(C#N)cc2)nc1Oc1ccc2ccccc2c1Br	K103N + Y181C	MT-4	IIIB	3.01 µM

Repeating the first 4 entries:

smiles | changes | cells | strain | result
COc1ccc(N(C)C(=O)[C@H](Cc2cc(F)cc(F)c2)NC(=O)CN2CCN(S(=O)(=O)c3cccc([N+](=O)[O-])c3)CC2=O)cc1 |  | MT-4 | IIIB | 1.49 µM
COc1ccc(N(C)C(=O)[C@H](Cc2ccccc2)NC(=O)c2cccc(-c3cn(-c4cnc5ccccc5c4)nn3)c2)cc1 |  | TZM-bl | NL4-3 | >34.33 µM
CCc1c(Cc2cc(C)cc(C)c2)n(COCC#Cc2cccs2)c(=O)[nH]c1=O | WT | MT-4 | IIIB | 0.008 µM
CC(C)[C@@H](NC(=O)c1ccccc1)C(=O)N/N=C/c1c(F)cccc1F |  | MT-4 | IIIB | >348 µM